Test results taken from US20040024068A1, “Antimicrobial compounds” (priority 1998, published 2004).

Test system: Mycobacterium smegmatis mc^2155 and InhA mutants
Test: MIC on agar plates by 2-fold serial dilutions, M. smegmatis strains
Format: cell-based
Conditions: each of mutants MT1, MT9 and MT17

SMILES: Oc1cc(Cl)ccc1Oc1ccc(Cl)cc1Cl [triclosan, 2,4,4′-trichlor-2′-hydroxydiphenyl ether]
- times more resistant to triclosan than the parental strain: 4-6
